Article PMC3571957
Construct, isoform or probe ends are uncertain for at least one entry.

Tested on: SSBXoc (single-stranded DNA-binding protein) (Xanthomonas oryzae pv. oryzicola RS105)
Test: EMSA
Conditions: recombinant protein, protein details: GST tag removed by thrombin (pET41a(+)), label: 3' biotin

| Sequence | binding result |
| --- | --- |
| AATAGCCCATCATCACCAGAAG [DNA2] | binds |
| TTCGCGCGTACAAGCACAATTTCGCG [DNA1] | binds |
